A mixed list of measured activities; the numbers were collected in NIAID ChemDB.

Shared fields: host cell toxicity; cells: MT-4; endpoint: CC50

Blank or dashed fields: not listed here. Conditions beyond the fields shown may differ between rows. CCn is the concentration with n% toxicity to the cells.

SMILES	read by	result
O=C(O[C@@H]1O[C@@H]2COC(=O)c3cc(O)c(O)c(O)c3-c3c(cc(O)c(O)c3O)C(=O)O[C@H]2[C@H](OC(=O)c2cc(O)c(O)c(O)c2)[C@H]1OC(=O)c1cc(O)c(O)c(O)c1Oc1cc2c(c(O)c1O)Oc1cc(cc(O)c1O)C(=O)O[C@@H]1O[C@@H]3COC(=O)c4cc(O)c(O)c(O)c4-c4c(cc(O)c(O)c4O)C(=O)O[C@H]3[C@H](OC(=O)c3cc(O)c(O)c(O)c3)[C@H]1OC2=O)c1cc(O)c(O)c(O)c1		58.6 µg/mL
Cc1cc(C)cc(Oc2c(C(C)C)c(=O)[nH]c(=O)n2Cc2cc(F)ccc2F)c1	MTT	>100 µg/mL
O=C(O[C@@H]1O[C@@H]2COC(=O)c3cc(O)c(O)c(O)c3-c3c(cc(O)c(O)c3O)C(=O)O[C@H]2[C@H](OC(=O)c2cc(O)c(O)c(O)c2)[C@H]1OC(=O)c1cc(O)c(O)c(O)c1)c1cc(O)c(O)c(Oc2c(C(=O)O[C@H]3[C@H](OC(=O)c4cc(O)c(O)c(O)c4)O[C@@H]4COC(=O)c5cc(O)c(O)c(O)c5-c5c(cc(O)c(O)c5O)C(=O)O[C@H]4[C@@H]3OC(=O)c3cc(O)c(O)c(O)c3)cc(O)c(O)c2O)c1		56.8 µg/mL
O=C1CC2CCC1C1C(=O)N(CCCBr)C(=O)C21	MTT	>100 µM
Cc1c(C(C)(O)c2cccc(F)c2)n(COCc2ccccc2)c(=O)[nH]c1=O	MTT	186 µM
Cn1c(-c2ccccc2F)cc(N)nc1=O	MTT	13.27 µM
Clc1ccc2c(c1)nnc1ccnn12		>200 µM
OC[C@@H]1OC[C@H](On2cnc3c(Cl)ncnc32)O1		>100 µg/mL
COc1ccc(/C=C/C(=O)c2c(O)c3cc(Cl)c(C)cc3oc2=O)cc1		45.6 µg/mL
CCOC(=O)c1cccn1S(=O)(=O)c1ccc(NC(C)=O)cc1		83.8 µM
CC(NS(=O)(=O)c1ccc(Cl)cc1)c1nnc(SCc2ccc(F)cc2)o1		58.75 µg/mL
Cc1cc(CF)cc(C(=O)c2c(C(C)C)c(=O)[nH]c(=O)n2Cc2cc(C)nc(C)c2)c1	MTT	36.03 µg/mL
Cc1cc(OCc2nc3ccccc3s2)cc(Oc2cc(Cl)cc(C#N)c2)c1	microscopy	>20 µM
CCc1c(Sc2cc(C)cc(C)c2)n(Cc2cc(C(F)(F)F)cc(C(F)(F)F)c2)c(=O)[nH]c1=O	MTT	>100 µg/mL
Cc1ccc(S(=O)(=O)NC(C)c2nnc(SCc3ccc(Br)cc3)o2)cc1		75.33 µg/mL
O=C1CC2CCC1C1C(=O)N(CC(O)CN3CCN(c4ccc(F)cc4)CC3)C(=O)C21	MTT	>100 µM
COc1ccc(Nc2nc3ccccc3n3cccc23)cc1OC	MTT	31 µM
O=C(O[C@@H]1O[C@@H]2COC(=O)c3cc(O)c(O)c(O)c3-c3c(cc(O)c(O)c3O)C(=O)O[C@H]([C@H]1O)[C@@H]2O)c1cc(O)c(O)c(O)c1		13.1 µg/mL
C=CCNc1nn2c(=O)c3ccccc3nc2s1	MTT	>97.1 µg/mL
Cc1cc2oc(=O)c(C(=O)/C=C/c3cccc([N+](=O)[O-])c3)c(O)c2cc1Cl		56 µg/mL
Clc1ccc2c(c1)nnc1c(Br)cnn12		>200 µM
O=C(O[C@@H]1O[C@@H]2COC(=O)c3cc(O)c(O)c(O)c3-c3c(cc(O)c(O)c3O)C(=O)O[C@H]2[C@@H]2OC(=O)c3cc(O)c(O)c(O)c3-c3c(cc(O)c(O)c3O)C(=O)O[C@@H]12)c1cc(O)c(O)c(O)c1		20.9 µg/mL
O=C(O)CCC(NC(=O)c1ccc(Nc2nc3cc(C(F)(F)F)ccc3n3cccc23)cc1)C(=O)O	MTT	>100 µM
COc1cccc(C(C)c2c(C)c(=O)[nH]c(=O)n2COCc2ccccc2)c1	MTT	>166 µM
[O-][n+]1nc2ccnn2c2ccc(Cl)cc21		>200 µM
Cn1c(-c2ccc(F)cc2)cc(N)nc1=O	MTT	19.35 µM
CSCCC(NS(=O)(=O)c1ccc(C)cc1)c1nnc(SCc2ccc(F)cc2)o1		≥11.5 µg/mL
CCc1c(Oc2cc(C)cc(C)c2)n(Cc2cccc(C#N)c2)c(=O)[nH]c1=O	MTT	>100 µg/mL
Cc1cc(C)cc(Oc2c(C(C)C)c(=O)[nH]c(=O)n2Cc2ccncc2)c1	MTT	15.8 µg/mL
COc1ccc(Cn2c(-c3ccccc3F)nc3c(OC)cccc32)cc1		14.8 µg/mL
[O-][n+]1nc2c(-c3ccc(F)cc3)cnn2c2ccccc21		>200 µM
Cc1cc(C)cc(C(=O)c2c(C(C)C)c(=O)[nH]c(=O)n2Cc2ccc([N+](=O)[O-])cc2)c1	MTT	5.65 µg/mL
O=c1[nH]cnc2c1ncn2O[C@H]1CO[C@@H](CO)O1		>100 µg/mL
O=C(O)c1cc(O)c(O)c(O)c1		4.3 µg/mL
COc1ccc(Cn2c(C(=O)c3cc(C)cc(C)c3)c(C(C)C)c(=O)[nH]c2=O)cc1	MTT	7.46 µg/mL
Cn1c(N2CCNCC2)c(N=Nc2ccc(Cl)cc2)c(N)nc1=O	MTT	3.03 µM
CCOC(=O)c1cccn1S(=O)(=O)c1cc(Cl)ccc1NC(=O)CC(C)C		>200 µM
CSCCC(NS(=O)(=O)c1ccc(C)cc1)c1nnc(SCc2ccccc2)o1		30.48 µg/mL
COCCN(C)c1ccc2c(COc3ccc(Cl)c(Oc4cc(Cl)cc(C#N)c4)c3)[nH]nc2n1	microscopy	>20 µM
CC(=O)OCc1cc(Cn2c(C(=O)c3cc(C)cc(Cl)c3)c(C(C)C)c(=O)[nH]c2=O)cc(C)n1	MTT	28.81 µg/mL
COc1cccc2c1nc(-c1ccccc1F)n2Cc1ccc(Cl)cc1		>17.9 µg/mL
C=C(c1ccc(Cl)cc1)c1c(C)c(=O)[nH]c(=O)n1COCc1ccccc1	MTT	34.49 µM
COc1cc(/C=C/C(=O)c2c(O)c3c(C)ccc(C(C)C)c3oc2=O)ccc1O		14.2 µg/mL
CCOC(=O)c1ccc(-c2cc(N)nc(=O)n2C)cc1	MTT	75.23 µM
COc1cc(OC)cc(OCc2nc3cc(C(F)(F)F)ccc3n3cccc23)c1	MTT	>100 µM
CCC(C)C(NC(=O)C(N)CO)C(=O)NC(C)C(=O)NC(CCC(=O)O)C(=O)NN[C@@]12NC(=O)[C@@]3(OC(C)=O)C4C5C(C41)[C@@H]1C[C@H]5C3C12		>10 µM
CCc1c(C(=O)c2cc(C)cc(C)c2)n(Cc2cc(C)nc(C)c2)c(=O)[nH]c1=O	MTT	17.5 µg/mL
Nc1ncnc2c1ncn2O[C@@H]1CS[C@@H](CO)O1		>100 µg/mL
O=c1c2ccccc2nc2scnn12	MTT	>82.05 µg/mL
N#Cc1cc(Cl)cc(Oc2cc(OCc3[nH]nc4nc(N5CC(CN)C5)ccc34)ccc2Cl)c1	microscopy	>20 µM
CC(NS(=O)(=O)c1ccc(Cl)cc1)c1nnc(SCc2ccccc2)o1		>65.63 µg/mL
CCc1c(Oc2cc(C)cc(C)c2)n(CC2CC2)c(=O)[nH]c1=O	MTT	>100 µg/mL
CCCNc1c(N=Nc2ccc(Cl)cc2)c(N)nc(=O)n1C	MTT	100 µM
COc1cccc2c1nc(-c1ccccc1F)n2Cc1ccccc1C#N		>25 µg/mL
CCc1c(Sc2cc(Cl)cc(Cl)c2)n(Cc2ccncc2)c(=O)[nH]c1=O	MTT	6.5 µg/mL
O=c1[nH]cnc2c1ncn2O[C@@H]1CS[C@@H](CO)O1		>100 µg/mL
CCOC(=O)c1cccn1S(=O)(=O)c1cc(Cl)ccc1NC(=O)c1ccccc1		155 µM
OC[C@H]1O[C@H](On2cnc3c(Cl)ncnc32)CS1		>100 µg/mL
Cc1cn([C@@H]2O[C@H](C(CO[Si](C)(C)C(C)(C)C)O[Si](C)(C)C(C)(C)C)C3(OS(=O)(=O)C=C3N)[C@H]2O[Si](C)(C)C(C)(C)C)c(=O)[nH]c1=O		>136 µM
CCC(C)C(NC(=O)C(N)CO)C(=O)NC(C)C(=O)N[C@@]12NC(=O)[C@@]3(O)C4C5C(C41)[C@@H]1C[C@H]5C3C12		10 µM
COc1cc(Nc2nc3cc(C(F)(F)F)ccc3n3cccc23)cc(OC)c1OC	MTT	57 µM
Brc1cnn2c1nnc1ccccc12		>200 µM
O=C1O[C@H]2[C@@H](OC(=O)c3cc(O)c(O)c(O)c3)[C@H](OC(=O)c3cc(O)c(O)c4c3C3C1=CC(=O)C(O)(O4)C3(O)O)[C@@H]1OC(=O)c3cc(O)c(O)c(O)c3-c3c(cc(O)c(O)c3O)C(O)OC[C@H]2O1		18.3 µg/mL
Cc1cc2oc(=O)c(C(=O)/C=C/c3ccc(O)cc3)c(O)c2cc1Cl		2.74 µg/mL
Cc1ccccc1C(C)(O)c1c(C)c(=O)[nH]c(=O)n1COCc1ccccc1	MTT	175 µM
CCc1c(Oc2cc(C)cc(C)c2)n(Cc2cc(F)ccc2F)c(=O)[nH]c1=O	MTT	>100 µg/mL
Cn1c(N(Cc2ccccc2)Cc2ccccc2)c(N=Nc2ccc(Cl)cc2)c(N)nc1=O	MTT	78.59 µM
Cc1cn([C@@H]2O[C@H](C(COC(=O)c3ccccc3)OC(=O)c3ccccc3)C3(OS(=O)(=O)C=C3N)[C@H]2O[Si](C)(C)C(C)(C)C)c(=O)[nH]c1=O		8.3 µM
Cc1ccc(-c2nnc(COc3ccc(Cl)c(Oc4cc(Cl)cc(C#N)c4)c3)o2)cc1	microscopy	>20 µM
O=c1[nH]cnc2c1ncn2O[C@H]1CS[C@@H](CO)O1		10 µg/mL
N#Cc1cc(Cl)cc(Oc2cc(OCc3[nH]nc4ncccc34)cc(F)c2Cl)c1	microscopy	>20 µM
O=C1CC2CCC1C1C(=O)N(CC(O)CN3CCN(c4ccccc4)CC3)C(=O)C21	MTT	>100 µM
Cn1c(N2CCCCC2)c(N=Nc2ccc(Cl)cc2)c(N)nc1=O	MTT	20.11 µM
O=C1CC2CCC1C1C(=O)N(CCCCN3CCN(Cc4ccccc4)CC3)C(=O)C21	MTT	>100 µM
Cc1cc(C)cc(Oc2c(C(C)C)c(=O)[nH]c(=O)n2Cc2ccc3ccccc3c2)c1	MTT	8.2 µg/mL
CCOC(=O)c1cccn1S(=O)(=O)c1cc(Cl)ccc1NS(=O)(=O)c1ccc(C)cc1		41 µM
COc1ccc(OCc2nc3cc(C(F)(F)F)ccc3n3cccc23)cc1	MTT	52 µM
Cc1cc(C)cc(Sc2c(C(C)C)c(=O)[nH]c(=O)n2Cc2ccc3c(c2)C(=O)c2ccccc2C3=O)c1	MTT	>100 µg/mL
CCOC(=O)c1ccc(-c2ccc(N=Nc3c(N)nc(=O)n(C)c3-c3ccc(C(=O)OCC)cc3)cc2)cc1	MTT	28.24 µM
COc1cccc2c1nc(-c1ccccc1F)n2Cc1cccc(F)c1		>19.1 µg/mL

The last 4 rows once more:

SMILES,read by,result
COc1ccc(OCc2nc3cc(C(F)(F)F)ccc3n3cccc23)cc1,MTT,52 µM
Cc1cc(C)cc(Sc2c(C(C)C)c(=O)[nH]c(=O)n2Cc2ccc3c(c2)C(=O)c2ccccc2C3=O)c1,MTT,>100 µg/mL
CCOC(=O)c1ccc(-c2ccc(N=Nc3c(N)nc(=O)n(C)c3-c3ccc(C(=O)OCC)cc3)cc2)cc1,MTT,28.24 µM
COc1cccc2c1nc(-c1ccccc1F)n2Cc1cccc(F)c1,,>19.1 µg/mL